PubChem BioAssay AID1259414, Drosophila RNAi Screening Center | 2018
Screen: 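Fly genes that alter Wolbachia amount inside host cells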 (primary screen). System: Drosophila JW18 cells infected with Wolbachia. Reagent: long dsRNA against Drosophila genes, 0.25 µg dsRNA per well of a 384-well plate. Duration: 5 days. Treatment: cells persistently infected with Wolbachia before knock-down; no added drug. Read-out: 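Automated imaging of bacterial rRNA staining divided by host cell count, reported as plate-normalised robust z-score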. Direction: Wolbachia per cell robust z: higher = more Wolbachia per host cell than the plate typical. Call rule: 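Hit when robust z is 1.5 or more, or -1.5 or less, in at least two of three replicates; excludes dsRNAs with several or no targets, genes not expressed in JW18 and well A1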.
The screen tested about 24,000 reagents; below is an unselected part of those that have a named target and a result. Of all reagents, about 1,210 (5%) got an active call. 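Inactive calls also include excluded dsRNAs with several or no targets, genes unexpressed in JW18, and well A1, regardless of score.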 The numbers tell different reagents against one gene apart. Names joined by + are all predicted targets of the reagent.

no.	target gene	reagent no.	Wolbachia per cell robust z, rep 1	Wolbachia per cell robust z, rep 2	Wolbachia per cell robust z, rep 3	activity call
1	CG30049 (GeneID 246416)	1	0.772	-0.864	0.787	inactive
2	CG30049 (GeneID 246416)	2	0.551	1.37	1.15	inactive
3	CG18213 (GeneID 42055)	1	0.225	-0.379	-0.02	inactive
4	CG7523 (GeneID 42125)	1	1.04	-0.344	1.12	inactive
5	CG4975 + CG4984	1	0.381	0.721	0.308	inactive
6	CG4975 + CG4984	2	-1.88	-1.07	0.195	inactive
7	CG12699 (GeneID 36944)	1	-0.242	-0.163	-0.836	inactive
8	CG12699 (GeneID 36944)	2	-0.0653	-0.154	0.779	inactive
9	GAPcenA (GeneID 38945)	1	-1.44	-5.57	0.298	inactive
10	CG3246 (GeneID 33564)	1	0.211	0.787	-0.0854	inactive
11	CG42809 (GeneID 10178894)	1	0.49	-0.00482	0.779	inactive
12	fred (GeneID 33613)	1	-0.102	0.343	0.844	inactive
13	fred (GeneID 33613)	2	0.45	0.716	-0.668	inactive
14	fred (GeneID 33613)	3	0.134	1.17	1.61	inactive
15	fred (GeneID 33613)	4	0.742	0.539	-0.0896	inactive
16	fred (GeneID 33613)	5	-1.53	-1.09	-0.286	inactive
17	CG42390 (GeneID 42600)	1	-0.948	0.68	0.177	inactive
18	CG42390 (GeneID 42600)	2	0.105	-6.67	1.34	inactive
19	CG15773 (GeneID 31494)	1	-0.986	0.546	0.24	inactive
20	Lsd-1 (GeneID 42810)	1	-0.16	-0.212	-0.488	inactive
21	Acp36DE (GeneID 35096)	1	-1.62	-0.529	-1.51	inactive
22	Vha16-1 (GeneID 44307)	1	0.555	1.95	-4.99	inactive
23	SCCRO3 (GeneID 36426)	1	0.603	-0.094	1.26	inactive
24	SCCRO3 (GeneID 36426)	2	1.08	1.93	-0.216	inactive
25	Gr64f (GeneID 117477)	1	0.374	-1.1	0.463	inactive
26	Gr64f (GeneID 117477)	2	-0.989	0.0452	0.278	inactive
27	CG34425 (GeneID 5740837)	1	1.06	0.999	0.0328	inactive
28	CG34425 (GeneID 5740837)	2	-1.14	-0.149	-1.08	inactive
29	Hacd2 (GeneID 34762)	1	-1.1	-5.91	-0.955	inactive
30	qin (GeneID 42236)	1	-4.69	-0.672	-0.598	inactive
31	qin (GeneID 42236)	2	0.425	-0.937	0.27	inactive
32	qin (GeneID 42236)	3	-2.15	0.555	0.204	inactive
33	CG31407 (GeneID 318716)	1	0.63	-0.508	-2.18	inactive
34	Nlg4 (GeneID 42402)	1	-1.08	0.411	-0.0686	inactive
35	Nlg4 (GeneID 42402)	2	-0.83	-0.163	-0.755	inactive
36	Nlg4 (GeneID 42402)	3	-0.124	-1.04	-0.799	inactive
37	Nlg4 (GeneID 42402)	4	-0.653	-1.04	-0.319	inactive
38	Nlg4 (GeneID 42402)	5	-2.01	-0.905	-1.12	inactive
39	Nlg4 (GeneID 42402)	6	0.03	-0.0417	0.577	inactive
40	CG5550 (GeneID 36883)	1	-1.29	-0.824	0.701	inactive
41	CG5550 (GeneID 36883)	2	-2.5	0.265	-10.8	active
42	Rint1 + CR41379	1	-0.415	-0.361	0.649	inactive
43	CG15096 (GeneID 37170)	1	-0.72	-0.612	0.705	inactive
44	CG15096 (GeneID 37170)	2	0.288	-0.192	-8.04	inactive
45	Dhfr (GeneID 42003)	1	-1.31	0.158	-9.7	inactive
46	Dhfr (GeneID 42003)	2	0.64	0.72	0.564	inactive
47	CtsL4 (GeneID 34401)	1	0.395	0.112	0.95	inactive
48	CG31525 (GeneID 318782)	1	0.226	-0.741	-0.831	inactive
49	Eglp1 (GeneID 37736)	1	-6.1	1.01	-4.52	inactive
50	GC1 (GeneID 41448)	1	-0.295	0.444	-0.596	inactive
51	GC1 (GeneID 41448)	2	-1.9	-7.16	-1.08	active
52	dls (GeneID 3772513)	1	-0.187	-0.343	-2	inactive
53	Or85e (GeneID 41018)	1	-1.7	-7.73	-0.0137	inactive
54	Gas41 (GeneID 33973)	1	-1.07	0.563	-0.661	inactive
55	r-l (GeneID 42493)	1	0.273	-0.446	0.03	inactive
56	r-l (GeneID 42493)	2	0.69	-1.32	0.0239	inactive
57	DhpD (GeneID 40528)	1	-1.85	-0.844	-0.751	inactive
58	SH3PX1 (GeneID 39136)	1	-0.0894	0.783	-0.682	inactive
59	Cen (GeneID 35330)	1	0.183	-0.289	0.031	inactive
60	l(2)03659 (GeneID 47905)	1	-0.631	-0.378	-3.37	inactive
61	l(2)03659 (GeneID 47905)	2	0.0336	0.0946	-1.13	inactive
62	CG31220 (GeneID 326126)	1	0.146	-1.19	-0.498	inactive
63	CG31220 (GeneID 326126)	2	0.611	2.26	0.114	inactive
64	CG10139 (GeneID 36626)	1	0.781	-1.16	0.26	inactive
65	CG13408 (GeneID 42597)	1	0.397	1.33	0.536	inactive
66	CG13408 (GeneID 42597)	2	0.272	-0.457	0.249	inactive
67	Pisd (GeneID 42849)	1	-0.107	0.173	0.393	inactive
68	CG12723 (GeneID 32271)	1	1.12	-2.17	0.569	inactive
69	CG12723 (GeneID 32271)	2	-1.11	0.666	0.961	inactive
70	Eps-15 (GeneID 37961)	1	-2.68	-0.424	-3.21	active
71	CG34160 (GeneID 5740175)	1	-0.384	-0.37	-0.478	inactive
72	Nedd8 (GeneID 35151)	1	3.86	3.12	2.31	active
73	CG9933 (GeneID 34700)	1	0.164	0.254	0.42	inactive
74	CG9933 (GeneID 34700)	2	-1.98	-0.171	-0.85	inactive
75	CG10565 (GeneID 40332)	1	-0.144	-1.03	0.726	inactive
76	CG32681 (GeneID 318151)	1	-1.02	-0.68	-0.443	inactive
77	Cf2 (GeneID 33692)	1	-0.365	-1.91	-2.59	active
78	Cf2 (GeneID 33692)	2	-0.349	-1.02	-0.913	inactive
79	Vha100-1 (GeneID 43442)	1	-1.48	-0.237	0.0897	inactive
80	Vha100-1 (GeneID 43442)	2	0.0902	1.97	0.176	inactive
81	Vha100-1 (GeneID 43442)	3	0.855	-0.0706	1.11	inactive
82	CG10383 (GeneID 35123)	1	-0.204	-0.0417	-1.45	inactive
83	CG10383 (GeneID 35123)	2	1.23	-0.0147	0.127	inactive
84	Strip (GeneID 38412)	1	1.67	1.32	1.47	inactive
85	Strip (GeneID 38412)	2	2.93	2.17	2.16	active
86	CG11566 (retired record) + stg1	1	-0.243	0.307	0.459	inactive
87	Rsph1 (GeneID 34712)	1	-0.359	-0.644	0.154	inactive
88	Rsph1 (GeneID 34712)	2	-0.185	-2.27	-0.882	inactive

Single entries from above.
Value of CG3246 (GeneID 33564) in “activity call”: inactive
CG10383 (GeneID 35123) #1, activity call = inactive
Rint1 + CR41379, activity call: inactive
Strip (GeneID 38412) #2, Wolbachia per cell robust z, rep 3 = 2.16
Acp36DE (GeneID 35096), Wolbachia per cell robust z, rep 1 = -1.62
Vha100-1 (GeneID 43442) #2, Wolbachia per cell robust z, rep 1 = 0.0902
